Measured values from several laboratories, pooled; numbers as filed in NIAID ChemDB.

Common to all: growth or infection tests; organism: Candida albicans

Blank or dashed fields: not listed here. A number after MIC or MFC names an inhibition level or a share of isolates. Conditions beyond the fields shown may differ between rows.

compound,strain,method,read-out,result
Fc1ccc(/C(Cn2ccnc2)=N/OCc2ccccc2)cc1,PR1,,MIC,64 µg/mL
CCCCN1/C(=C/C(=O)c2ccccc2)Sc2ccccc21,ATCC 10231,,MIC,50 µg/mL
COc1ccc(CCC(=O)Nc2ccc(Cc3nc4ccccc4s3)cc2)cc1,ATCC 10231,broth dilution,MIC100,25 µg/mL
CCCCC[C@@H]1OCO[C@@]2(C)/C=C(C)/C=C/C(=O)O[C@H]([C@@H](C)[C@@H](O)[C@H](C)[C@@]3(O)C[C@@H](O[C@H]4C[C@@H](O)[C@H](O)[C@@H](C)O4)[C@H](C)[C@@H](C)O3)[C@@H](OC)/C=C/C=C(\C)C[C@H]1[C@@H]2O,3147,,MIC,100 µg/mL
CCC(=O)C1Sc2ccccc2N(C2CCCCCCC2)C1=O,ATCC 14053,,MIC,≥100 µg/mL
COc1cc(C(=O)Nc2ccc3nn(C)nc3c2)cc(OC)c1OC,ATCC 10231,,MIC,100 µg/mL
CCCC(=O)/C=C1\Sc2cc(OC)ccc2N1C1=CCCCCC1,ATCC 14053,,MIC,>100 µg/mL
Cc1c(S(=O)(=O)c2ccccc2)[n+](=O)c2cc(Cl)ccc2n1[O-],Clinical isolate 15,,MIC,62.5 µg/mL
NNc1n[nH]c(=O)c2[nH]c3ccccc3c12,,broth dilution,MIC,250 µg/mL
O=c1ccc2c(ccc3nc(N4CCN(c5ccccn5)CC4)sc32)o1,MTCC 183,,MIC100,200 µg/mL
Cc1ccc2c(c1)S/C(=C\C(=O)C(C)C)N2C1CCC1,ATCC 10231,,MIC,>100 µg/mL
COc1ccc(N2CCN(c3nc4ccc5oc(=O)ccc5c4s3)CC2)cc1,MTCC 183,,MIC100,25 µg/mL
CCCCCCCCCCCOCn1c[n+](CNC(=O)c2cccnc2)c2ccccc21,ATCC 10231,,MIC,265 µM
CCn1c2ccccc2c2cnn(-c3ccc(OC)cc3)c(=O)c21,,broth dilution,MIC,250 µg/mL
CCOc1cc2c(cc1F)n([O-])c(C)c(S(=O)(=O)c1ccccc1)[n+]2=O,Clinical isolate 12,,MIC,15.6 µg/mL
COc1ccc(CCN(C)CCCC(C#N)(c2ccc(OC)c(OC)c2)C(C)C)cc1OC,66 strains,,MIC,334 µg/mL
Cn1c2ccccc2c2cnn(-c3ccc(Cl)cc3)c(=O)c21,,broth dilution,MIC,250 µg/mL
c1ccc(CO/N=C(/Cn2ccnc2)c2ccccc2)cc1,CA7,,MIC,128 µg/mL
CCCCCOC[n+]1cccc(NCn2nnc3ccccc32)c1,ATCC 10231,,MIC,>1383 µM
CN(CCCC#CC(C)(C)C)c1cccc2c1CCC(=O)N2,Clinical isolate 15,,MIC,62.5 µg/mL
Cn1c(=O)ccc2c3sc(N4CCN(c5ccccn5)CC4)nc3ccc21,MTCC 183,,MIC100,200 µg/mL
O=C(Nc1ccc(Cc2nc3ccccc3s2)cc1)c1ccc([N+](=O)[O-])cc1,ATCC 10231,broth dilution,MIC100,25 µg/mL
Clc1ccc(/C(Cn2ccnc2)=N/OCc2ccccc2)cc1,CA6,,MIC,16 µg/mL
Cn1c(=O)ccc2c3sc(N4CCC(Cc5ccccc5)CC4)nc3ccc21,MTCC 183,,MIC100,200 µg/mL
CCOC(=O)c1c(/C=N\O)c2ccccc2n1C,,broth dilution,MIC,250 µg/mL
CCC(C)Oc1ccc(C(=O)Nc2ccc(Cc3nc4ccccc4s3)cc2)cc1,ATCC 10231,broth dilution,MIC100,25 µg/mL
Cn1nc2ccc(NC(=O)CCl)cc2n1,ATCC 10231,,MIC,200 µg/mL
CCCCOC[n+]1cccc(NCn2nnc3ccccc32)c1,ATCC 10231,,MIC,>1439 µM
Clc1ccc(/C(Cn2ccnc2)=N\OCc2ccccc2)cc1,5M,,MIC,32 µg/mL
COc1ccc(N2CCN(c3nc4ccc5c(ccc(=O)n5C)c4s3)CC2)cc1,MTCC 183,,MIC100,25 µg/mL
O=C(Nc1ccc2nn(C3CCCCC3)nc2c1)c1ccc([N+](=O)[O-])cc1,ATCC 10231,,MIC,100 µg/mL
COCCOC(=O)C1=C(C)NC(C)=C(C(=O)OC(C)C)C1c1cccc([N+](=O)[O-])c1,66 strains,,MIC,486 µg/mL
OC(Cn1cncn1)(Cn1cncn1)c1ccc(F)cc1F,MTCC 183,,MIC100,12.5 µg/mL
CCCCCCCCCCCOC[n+]1cccc(NCn2cnc3ccccc32)c1,ATCC 10231,,MIC,70 µM
O=c1c2[nH]c3ccccc3c2cnn1-c1ccc(Cl)cc1,,broth dilution,MIC,250 µg/mL
Clc1ccc(/C(Cn2ccnc2)=N/OCc2ccccc2)c(Cl)c1,CA12,,MIC,>128 µg/mL
CCc1ccccc1-n1ncc2c([nH]c3ccccc32)c1=O,,broth dilution,MIC,250 µg/mL
CCC(=O)C1Sc2ccccc2N(C2CCCCCC2)C1=O,ATCC 10231,,MIC,≥100 µg/mL
Cn1nc2ccc(NC(=O)c3ccccc3)cc2n1,ATCC 10231,,MIC,100 µg/mL
O=c1ccc2c(ccc3nc(N4CCN(C(c5ccccc5)c5ccccc5)CC4)sc32)o1,MTCC 183,,MIC100,200 µg/mL
COc1ccc(-n2ncc3c([nH]c4ccccc43)c2=O)cc1,,broth dilution,MIC,250 µg/mL
O=C(Cc1ccc(Br)cc1)Nc1ccc(Cc2nc3ccccc3s2)cc1,ATCC 10231,broth dilution,MIC100,25 µg/mL
O=c1ccc2c(ccc3nc(N4CCN(c5cccc(C(F)(F)F)c5)CC4)sc32)o1,MTCC 183,,MIC100,50 µg/mL
CCC(C)CC(C)CCCCCCCCC(=O)N[C@H]1C[C@@H](O)[C@H](NCCN)NC(=O)[C@@H]2[C@@H](O)CCN2C(=O)[C@H]([C@H](O)CCN)NC(=O)[C@H]([C@H](O)[C@@H](O)c2ccc(O)cc2)NC(=O)[C@@H]2C[C@@H](O)CN2C(=O)[C@H]([C@@H](C)O)NC1=O,40 isolates,,MIC90,0.5 µg/mL
Cc1c(Sc2ccccc2)[n+](=O)c2cc(Cl)ccc2n1[O-],Clinical isolate 6,,MIC,15.6 µg/mL
COC(=O)c1cc(O)cc(OC)c1Oc1cc(C)cc(OC)c1C(N)=O,,,MIC,6.2 µg/mL
CCn1c2ccccc2c2cnn(-c3ccc(Br)cc3)c(=O)c21,,broth dilution,MIC,250 µg/mL

5 of the rows above, restated:

compound,strain,method,read-out,result
COC(=O)c1cc(O)cc(OC)c1Oc1cc(C)cc(OC)c1C(N)=O,,,MIC,6.2 µg/mL
O=C(Cc1ccc(Br)cc1)Nc1ccc(Cc2nc3ccccc3s2)cc1,ATCC 10231,broth dilution,MIC100,25 µg/mL
CCOC(=O)c1c(/C=N\O)c2ccccc2n1C,,broth dilution,MIC,250 µg/mL
CCC(=O)C1Sc2ccccc2N(C2CCCCCC2)C1=O,ATCC 10231,,MIC,≥100 µg/mL
CCn1c2ccccc2c2cnn(-c3ccc(OC)cc3)c(=O)c21,,broth dilution,MIC,250 µg/mL